The values that follow come from article PMC9817140.

Where a protein sequence is shown, tags need not be part of it.

For this data set, the target named is T1, RpoN (sigma-54) (Vibrio parahaemolyticus RIMD2210633) (UniProt Q87LE2).
T1 sequence (looked up): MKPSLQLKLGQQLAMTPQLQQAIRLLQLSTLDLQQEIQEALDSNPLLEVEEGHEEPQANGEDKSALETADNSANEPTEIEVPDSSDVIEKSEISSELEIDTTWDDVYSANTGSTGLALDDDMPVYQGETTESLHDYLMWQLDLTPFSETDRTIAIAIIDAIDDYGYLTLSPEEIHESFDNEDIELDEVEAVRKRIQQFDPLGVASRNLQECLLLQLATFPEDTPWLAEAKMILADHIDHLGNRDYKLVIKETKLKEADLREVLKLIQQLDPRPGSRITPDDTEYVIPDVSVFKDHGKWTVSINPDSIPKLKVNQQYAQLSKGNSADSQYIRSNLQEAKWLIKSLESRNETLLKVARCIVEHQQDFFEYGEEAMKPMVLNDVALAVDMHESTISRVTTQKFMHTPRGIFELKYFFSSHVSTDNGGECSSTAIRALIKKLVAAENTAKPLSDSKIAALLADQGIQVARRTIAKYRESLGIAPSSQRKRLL
Kind of data set: EMSA. Particulars: EMSA: 20 µl with 10 ng FAM probe, 4 µl EMSA buffer (10 mM NaCl, 0.1 mM DTT, 0.1 mM EDTA, 10 mM Tris pH 7.4), 1 µl poly-dIdC, 25 °C 0.5 h, 6% native PAGE; recombinant protein; residues 1-488; label: FAM; probe letters rebuilt from the primers and the genome. (In general: Mobility shift assays separate free from complexed probe on a gel.)

Regarding “GAAAAACCTCGCCAAAGACCTGCTAAATATTTATATATCGATTTTTATAATTAGATTTGAAGCTTTAATTATTAACATTAAGATTAATAGAGTTCTTATAGCTGTTATAAAAACTATTGACGGCATAATGAATCATTTTTTTATCAAAGCAATCATGAATTGTTGAACAATTTTAAATATCCAACCAGGTTCAAATTTTTGACACTCAAACTTTCACCCGTCAAAAAACCGATGTTAGTTTGGCCGAGAAAATCTAACCGAAGTATTTTTCATTTAGCAGGAATATATATATTAACCCCATCATTTATATGGAGTCCTTATCGTCGACCTGCAGGCA (double strand) [VPA1044 promoter]”, the binding result is listed as “binds”.
